## Structure probing of HIV-1 leader RNA with DMS

Source: Ye et al. 2022 (doi:10.1038/s41594-022-00746-2), supplementary data.

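Randomly mutated transcripts starting with one, two or three G (1G, 2G, 3G), capped or uncapped, were folded for 30 min at 37 °C. High salt was 300 mM KCl and 5 mM MgCl2, low salt 40 mM KCl and 0.1 mM MgCl2; monomer and dimer were parted on a native gel. Gel slices were treated with 170 mM dimethyl sulfate for 15 min at 37 °C and read by mutational profiling against an ethanol control.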

Sequence of the HIV-1 NL4-3 5' RNA, positions 1 to 437, as numbered in the source:
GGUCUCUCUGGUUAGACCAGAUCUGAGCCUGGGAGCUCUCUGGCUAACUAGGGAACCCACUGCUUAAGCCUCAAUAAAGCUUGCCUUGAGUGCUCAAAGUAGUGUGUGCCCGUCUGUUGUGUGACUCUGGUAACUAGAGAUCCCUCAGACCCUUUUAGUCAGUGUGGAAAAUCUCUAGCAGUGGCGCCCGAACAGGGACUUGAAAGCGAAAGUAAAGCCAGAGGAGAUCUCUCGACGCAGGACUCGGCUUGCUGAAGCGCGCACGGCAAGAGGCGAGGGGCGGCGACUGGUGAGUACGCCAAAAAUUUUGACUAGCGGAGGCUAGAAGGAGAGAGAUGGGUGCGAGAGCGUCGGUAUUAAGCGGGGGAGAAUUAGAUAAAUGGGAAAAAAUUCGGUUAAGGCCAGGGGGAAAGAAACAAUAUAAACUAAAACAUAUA

Values are winsor-normalised DMS reactivities of A and C; higher means more reactive, usually unpaired.
One numbering serves 1G, 2G and 3G.
A position is written with its base.

position | domain | 1G uncapped low-salt dimer | 1G uncapped low-salt monomer | 2G capped high-salt dimer | 2G capped high-salt monomer
A215 | PBS | 0.70 | 0.55 | 0.63 | 0.50
A216 | PBS | 0.59 | 0.49 | 0.74 | 0.57
C218 | antiPAS | 0.03 | 0.05 | 0.07 | 0.03
C219 | antiPAS | 0.03 | 0.05 | 0.07 | 0.05
A220 | antiPAS | 0.20 | 0.30 | 0.21 | 0.35
A222 | antiPAS | 0.27 | 0.25 | 0.31 | 0.29
A225 | none | 0.75 | 0.69 | 0.83 | 0.82
A227 | CU | 0.34 | 0.32 | 0.20 | 0.26
C229 | CU | 0.11 | 0.21 | 0.16 | 0.25
C231 | CU | 0.09 | 0.14 | 0.12 | 0.14
C233 | CU | 0.17 | 0.26 | 0.14 | 0.27
A235 | none | 0.75 | 0.62 | 0.74 | 0.70
C236 | none | 0.42 | 0.47 | 0.41 | 0.53
C238 | none | 0.47 | 0.65 | 0.45 | 0.74
A239 | none | 0.71 | 0.57 | 0.72 | 0.61
A242 | none | 1.11 | 0.89 | 1.05 | 0.89
C243 | SL1 | 0.05 | 0.07 | 0.03 | 0.06
C245 | SL1 | 0.08 | 0.23 | 0.05 | 0.23
C248 | SL1 | 0.03 | 0.06 | 0.03 | 0.05
C252 | SL1 | 0.06 | 0.21 | 0.04 | 0.19
A255 | SL1 | 0.47 | 0.46 | 0.47 | 0.48
A256 | SL1 | 1.03 | 0.81 | 1.03 | 0.84
C258 | SL1 | 0.22 | 0.32 | 0.22 | 0.35
C260 | SL1 | 0.34 | 0.44 | 0.32 | 0.51
C262 | SL1 | 0.23 | 0.36 | 0.21 | 0.42
A263 | SL1 | 0.78 | 0.23 | 0.84 | 0.23
C264 | SL1 | 0.21 | 0.38 | 0.18 | 0.42
C267 | SL1 | 0.08 | 0.20 | 0.05 | 0.16
A268 | SL1 | 0.17 | 0.31 | 0.15 | 0.28
A269 | SL1 | 0.27 | 0.52 | 0.22 | 0.48
A271 | SL1 | 0.55 | 0.59 | 0.52 | 0.54
C274 | SL1 | 0.26 | 0.69 | 0.21 | 0.60
A276 | SL1 | 0.46 | 1.03 | 0.34 | 0.96
C281 | none | 0.27 | 0.37 | 0.45 | 0.41
C284 | SL2 | 0.15 | 0.19 | 0.15 | 0.22
A286 | SL2 | 0.60 | 0.53 | 0.63 | 0.55
C287 | SL2 | 0.38 | 0.27 | 0.41 | 0.33
A293 | SL2 | 0.88 | 0.83 | 0.87 | 0.77
A296 | SL2 | 0.55 | 0.59 | 0.57 | 0.62
C297 | SL2 | 0.11 | 0.14 | 0.13 | 0.18
C299 | SL2 | 0.06 | 0.05 | 0.07 | 0.08
C300 | none | 0.06 | 0.05 | 0.07 | 0.06
A301 | none | 0.25 | 0.25 | 0.24 | 0.26
A302 | none | 1.26 | 1.20 | 1.15 | 1.17
A303 | none | 0.07 | 0.08 | 0.07 | 0.07
A304 | none | 0.15 | 0.18 | 0.16 | 0.15
A305 | none | 0.70 | 0.72 | 0.68 | 0.75
A311 | none | 1.33 | 1.22 | 1.25 | 1.19
C312 | SL3 | 0.07 | 0.09 | 0.07 | 0.11
A314 | SL3 | 0.03 | 0.05 | 0.03 | 0.04
C316 | SL3 | 0.05 | 0.10 | 0.05 | 0.12
A319 | SL3 | 0.91 | 0.92 | 0.89 | 0.87
C322 | SL3 | 0.03 | 0.05 | 0.03 | 0.03
A324 | SL3 | 0.08 | 0.10 | 0.07 | 0.13
A326 | none | 0.89 | 0.81 | 0.89 | 0.88
A327 | none | 1.10 | 0.99 | 1.03 | 1.01
A330 | none | 0.82 | 0.89 | 0.81 | 0.96
A332 | none | 0.52 | 0.64 | 0.46 | 0.61

A selection of 4 entries from above:

position	domain	1G uncapped low-salt dimer	1G uncapped low-salt monomer	2G capped high-salt dimer	2G capped high-salt monomer
A319	SL3	0.91	0.92	0.89	0.87
A305	none	0.70	0.72	0.68	0.75
C316	SL3	0.05	0.10	0.05	0.12
A225	none	0.75	0.69	0.83	0.82